In ChEMBL document CHEMBL1133503 (J Med Chem, 2000) one finds Selectivity data, which are given here for two compounds.

This experiment can be described thus: Hypoxic selectivity expressed as the ratio of IC50 values in air and nitrogen. It counts as functional.

As to `C[S+]([O-])c1ccc(N(CCCl)CCCl)cc1` (configuration not stated), the Selectivity was found to be 3.

Turning to `CCC[S+]([O-])c1ccc(N(CCCl)CCCl)cc1` (configuration not stated), the Selectivity amounted to 3.
